Earlier results in patent US20070123520A1 (priority 2005, published 2007).

Tested on: H5N1 virus
Details: H5N1 virus currently infecting birds in Asia

In the case of `CC(N)C12CC3CC(CC(C3)C1)C2` (centres unmarked) [rimantadine], the “resistance of H5N1 virus to the drug” value is given as “resistant”.

For `NC12CC3CC(CC(C3)C1)C2` [amantadine], the “resistance of H5N1 virus to the drug” value is listed as “resistant”.
